The text below walks through data of patent US20090239285A1, “TANDEM REAPEAT DNA CONSTRUCTS PRODUCING PROTEINS THAT ATTACK PLANT PATHOGENIC VIRUSES, FUNGI, AND BACTERIA BY DISRUPTING TRANSCRIPTION FACTORS ESSENTIAL FOR REPLICATION THEREOF IN PLANTS” (priority 2008, published 2009).

Bounds are passed on as bounds.

The series can be described thus: Picolinic acid levels in syngenic Cassava plant cells after Geminivirus infection. The class given is in vivo.

For `O=C(O)c1ccccn1` [Picolinic acid, 2-pyridine carboxylic acid], where the note is “within 3 h”, the “intracellular PA concentration reached” value was 0.5 mM. Also, for the setting “within 3 h of virus destruction”, the “basal level of picolinic acid” value is less than 0.5 mM.
